Values from PubChem BioAssay AID1224833 (University of Georgia, 2016)
This is an unselected part of about 12,000 reagents. About 5,600 of them (46%) count as active. 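Active calls cover z-scores past 1 in both directions, so they include lowered as well as raised rotavirus replication.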 Reagent sequences are not shown.

Aim: 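Host factors restraining rotavirus as candidate antiviral genes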 (primary screen)
System: monkey MA104 kidney cells
Reagent: siRNA pool against human genes, 50 nM
Time to read-out: 48 h knock-down before infection; read 24 h after infection
Conditions: infection with rotavirus strain RV3 two days after transfection; infectious dose for this stage not given
Measurement: 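Rotavirus antigen per well by fluorescent immunoassay, normalised to non-targeting control wells on each plate and given as a standard z-score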
Reading the numbers: z-score vs non-targeting control: higher = more rotavirus replication than with non-targeting control
Rule for the call: In these data the active calls have z-score vs non-targeting control at about -1 or lower, or at about 1 or higher
Calls: active = z-score beyond 1 either way; inactive = z-score within 1 of zero

The opening 7 records, ahead of the listing:
Gene | PubChem SID | z-score vs non-targeting control | Outcome
SH3BGRL3 (SH3 domain binding glutamate rich protein like 3) | SID329581384 | -1.4 | active
PAH (phenylalanine hydroxylase) | SID329574742 | -1.23 | active
DRC5 (dynein regulatory complex subunit 5) | SID329583448 | -0.954 | inactive
CEP83 (centrosomal protein 83) | SID329578928 | 0.121 | inactive
UBA52 (ubiquitin A-52 residue ribosomal protein fusion product 1) | SID329575749 | 0.918 | inactive
SIRPB2 (signal regulatory protein beta 2) | SID329583913 | -1.35 | active
ZNF641 (zinc finger protein 641) | SID329582416 | 0.684 | inactive

The list itself, from the first entry:
Gene | PubChem SID | z-score vs non-targeting control | Outcome
SH3BGRL3 (SH3 domain binding glutamate rich protein like 3) | SID329581384 | -1.4 | active
PAH (phenylalanine hydroxylase) | SID329574742 | -1.23 | active
DRC5 (dynein regulatory complex subunit 5) | SID329583448 | -0.954 | inactive
CEP83 (centrosomal protein 83) | SID329578928 | 0.121 | inactive
UBA52 (ubiquitin A-52 residue ribosomal protein fusion product 1) | SID329575749 | 0.918 | inactive
SIRPB2 (signal regulatory protein beta 2) | SID329583913 | -1.35 | active
ZNF641 (zinc finger protein 641) | SID329582416 | 0.684 | inactive
CCL14 (C-C motif chemokine ligand 14) | SID329575260 | 0.653 | inactive
PHLPP1 (PH domain and leucine rich repeat protein phosphatase 1) | SID329577888 | -1.87 | active
OR51A7 (olfactory receptor family 51 subfamily A member 7) | SID329582391 | -2.2 | active
NOX5 (NADPH oxidase 5) | SID329580881 | -0.66 | inactive
TUBE1 (tubulin epsilon 1) | SID329578950 | -2.33 | active
DSC1 (desmocollin 1) | SID329573451 | -0.826 | inactive
SLC60A1 | SID329582983 | -0.997 | inactive
TMEM245 (transmembrane protein 245) | SID329578121 | -0.259 | inactive
LUZP4 (leucine zipper protein 4) | SID329578970 | 0.569 | inactive
SCUBE2 (signal peptide, CUB domain and EGF like domain containing 2) | SID329580379 | 1.48 | active
PCCB (propionyl-CoA carboxylase subunit beta) | SID329574759 | -1.04 | active
TMEM184B (transmembrane protein 184B) | SID329578185 | -1.7 | active
RTRAF (RNA transcription, translation and transport factor) | SID329579155 | -0.812 | inactive
TTC32 (tetratricopeptide repeat domain 32) | SID329582657 | 1.54 | active
USB1 (U6 snRNA biogenesis phosphodiesterase 1) | SID329580935 | -0.951 | inactive
TSPAN11 (tetraspanin 11) | SID329584603 | -2.53 | active
NXNL2 (nucleoredoxin like 2) | SID329583138 | -0.125 | inactive
GOLGA4 (golgin A4) | SID329573812 | 0.203 | inactive
SLC38A4 | SID329579561 | -0.715 | inactive
CFAP119 (cilia and flagella associated protein 119) | SID329581973 | 1.85 | active
ABCC5 (ATP binding cassette subfamily C member 5) | SID329576938 | 0.634 | inactive
KLHL21 (kelch like family member 21) | SID329576864 | -0.786 | inactive
TRAFD1 (TRAF-type zinc finger domain containing 1) | SID329577420 | -1.56 | active
TEX261 (testis expressed 261) | SID329582187 | 1.53 | active
OR12D3 (olfactory receptor family 12 subfamily D member 3) | SID329581356 | 0.179 | inactive
MFAP3L (microfibril associated protein 3 like) | SID329576832 | 0.0434 | inactive
OR7C1 (olfactory receptor family 7 subfamily C member 1) | SID329578430 | -0.299 | inactive
RGS9BP (regulator of G protein signaling 9 binding protein) | SID329584326 | 1.89 | active
ATP6V0E2 (ATPase H+ transporting V0 subunit e2) | SID329583118 | -1.27 | active
CCN5 (cellular communication network factor 5) | SID329576315 | 1.51 | active
EXD2 (exonuclease 3'-5' domain containing 2) | SID329579647 | 0.744 | inactive
TTPA (alpha tocopherol transfer protein) | SID329575734 | -0.131 | inactive
EP400 (E1A binding protein p400) | SID329580328 | -0.789 | inactive
LSM4 | SID329578169 | 0.975 | inactive
POLL (DNA polymerase lambda) | SID329578586 | 0.654 | inactive
MAP1B (microtubule associated protein 1B) | SID329574387 | -0.491 | inactive
SMC5 (structural maintenance of chromosomes 5) | SID329577826 | 0.393 | inactive
KRT23 (keratin 23) | SID329578256 | -2.36 | active
SERBP1 (SERPINE1 mRNA binding protein 1) | SID329578323 | -1 | active
PTBP1 (polypyrimidine tract binding protein 1) | SID329575005 | -0.999 | inactive
MYO19 (myosin XIX) | SID329581165 | -1.51 | active
MS4A3 (membrane spanning 4-domains A3) | SID329573063 | 1.96 | active
LENEP (lens epithelial protein) | SID329579920 | -2.08 | active
TIMD4 (T cell immunoglobulin and mucin domain containing 4) | SID329582038 | 1.14 | active
DDIT4 (DNA damage inducible transcript 4) | SID329579320 | 1.04 | active
CITED1 (Cbp/p300 interacting transactivator with ED-rich tail 1) | SID329574483 | -1.24 | active
MUC16 (mucin 16, cell surface associated) | SID329582130 | -2.71 | active
NRN1L (neuritin 1 like) | SID329582476 | -0.625 | inactive
RPRD1A (regulation of nuclear pre-mRNA domain containing 1A) | SID329579631 | -1.58 | active
TRMT10A (tRNA methyltransferase 10A) | SID329582116 | -0.435 | inactive
TRAF3IP2 (TRAF3 interacting protein 2) | SID329577346 | 2.3 | active
MRPL37 (mitochondrial ribosomal protein L37) | SID329578986 | -1.41 | active
CNNM4 | SID329578390 | 0.658 | inactive
TRIT1 (tRNA isopentenyltransferase 1) | SID329579395 | -2.05 | active
LCE3D (late cornified envelope 3D) | SID329581682 | -2.05 | active
HADHA | SID329573926 | 2.3 | active
NFKBIZ (NFKB inhibitor zeta) | SID329580614 | -0.344 | inactive
DPY19L3 (dpy-19 like C-mannosyltransferase 3) | SID329582961 | -1.04 | active
ITGB2 (integrin subunit beta 2) | SID329574191 | -0.549 | inactive
OPN5 (opsin 5) | SID329583583 | -0.941 | inactive
B4GALT2 (beta-1,4-galactosyltransferase 2) | SID329576247 | 1.38 | active
THOP1 (thimet oligopeptidase 1) | SID329575636 | 1.21 | active
INTS7 (integrator complex subunit 7) | SID329578211 | -0.46 | inactive
LRRC3B (leucine rich repeat containing 3B) | SID329582293 | -0.583 | inactive
GPCPD1 (glycerophosphocholine phosphodiesterase 1) | SID329580021 | -1.98 | active
KLF11 (KLF transcription factor 11) | SID329576122 | -0.518 | inactive
CAPN3 (calpain 3) | SID329573006 | 0.54 | inactive
PROSER2 (proline and serine rich 2) | SID329583703 | -0.719 | inactive
CHAF1A (chromatin assembly factor 1 subunit A) | SID329576926 | -0.247 | inactive
VLDLR (very low density lipoprotein receptor) | SID329575798 | 3.05 | active
NIPSNAP2 (nipsnap homolog 2) | SID329573729 | 0.312 | inactive
PDE6C (phosphodiesterase 6C) | SID329574779 | -0.618 | inactive
ARID1A (AT-rich interaction domain 1A) | SID329576044 | -1.06 | active
H2BW1 (H2B.W histone 1) | SID329583169 | 0.524 | inactive
MIOS (meiosis regulator for oocyte development) | SID329579284 | -1.06 | active
OGT (O-linked N-acetylglucosamine (GlcNAc) transferase) | SID329576128 | 1.16 | active
GGCT (gamma-glutamylcyclotransferase) | SID329580803 | -3.16 | active
OXT (oxytocin/neurophysin I prepropeptide) | SID329574729 | 0.259 | inactive
ARFGEF2 (ARF guanine nucleotide exchange factor 2) | SID329577242 | 0.463 | inactive
ZNF225 (zinc finger protein 225) | SID329575931 | -0.381 | inactive
OASL (2'-5'-oligoadenylate synthetase like) | SID329576208 | -1.55 | active
TMSB4X (thymosin beta 4 X-linked) | SID329575674 | -1.2 | active
FAM90A1 (family with sequence similarity 90 member A1) | SID329579588 | -0.702 | inactive
FKBP10 (FKBP prolyl isomerase 10) | SID329580493 | -0.704 | inactive
CA12 (carbonic anhydrase 12) | SID329572989 | -0.99 | inactive
UTP6 (UTP6 small subunit processome component) | SID329579884 | 0.0789 | inactive
SFR1 (SWI5 dependent homologous recombination repair protein 1) | SID329582383 | -1.61 | active
CFAP74 (cilia and flagella associated protein 74) | SID329581864 | 0.474 | inactive
ZSCAN9 (zinc finger and SCAN domain containing 9) | SID329575917 | -0.765 | inactive
LAMTOR3 (late endosomal/lysosomal adaptor, MAPK and MTOR activator 3) | SID329576215 | 2.52 | active
IFT70B (intraflagellar transport 70B) | SID329583026 | 1.12 | active
SYT2 (synaptotagmin 2) | SID329582587 | 0.734 | inactive
ELOB (elongin B) | SID329575578 | -1.96 | active
KLK14 (kallikrein related peptidase 14) | SID329578784 | 1.07 | active
C1QTNF2 (C1q and TNF related 2) | SID329582243 | -0.786 | inactive
RANBP3 (RAN binding protein 3) | SID329576137 | 1.74 | active
ADCY9 (adenylate cyclase 9) | SID329572691 | 0.981 | inactive
CFL1 (cofilin 1) | SID329573144 | -1.88 | active
GNL1 (G protein nucleolar 1) | SID329573805 | 0.316 | inactive
TAS2R16 (taste 2 receptor member 16) | SID329578820 | 0.136 | inactive
LTF (lactotransferrin) | SID329574342 | 2.98 | active
SPINT3 (serine peptidase inhibitor, Kunitz type 3) | SID329577378 | -0.1 | inactive
PLEK (pleckstrin) | SID329574861 | -1.01 | active
AGR3 | SID329583124 | -1.59 | active
SWT1 (SWT1 RNA endoribonuclease homolog) | SID329579410 | -1.07 | active
UQCRQ (ubiquinol-cytochrome c reductase complex III subunit VII) | SID329578487 | 0.474 | inactive
SEBOX (SEBOX homeobox) | SID329584690 | 0.13 | inactive
OR51L1 (olfactory receptor family 51 subfamily L member 1) | SID329582390 | -2.54 | active
NFKB2 (nuclear factor kappa B subunit 2) | SID329574617 | 0.954 | inactive
RAB35 (RAB35, member RAS oncogene family) | SID329577489 | -1.05 | active
DOK5 (docking protein 5) | SID329579887 | -0.443 | inactive
SIGMAR1 (sigma receptor chaperone 1) | SID329577075 | -1.25 | active
CDHR2 (cadherin related family member 2) | SID329579411 | -0.227 | inactive
ENTPD5 (ectonucleoside triphosphate diphosphohydrolase 5) | SID329573082 | -1.19 | active
PSAT1 (phosphoserine aminotransferase 1) | SID329578744 | -3.18 | active
IL15RA (interleukin 15 receptor subunit alpha) | SID329574156 | -0.0982 | inactive
CAPZA2 (capping actin protein of muscle Z-line subunit alpha 2) | SID329573008 | -0.277 | inactive
IL10RB (interleukin 10 receptor subunit beta) | SID329574147 | -0.381 | inactive
KBTBD8 (kelch repeat and BTB domain containing 8) | SID329581652 | -1.37 | active
COPS7A (COP9 signalosome subunit 7A) | SID329578818 | -0.0789 | inactive
KYNU (kynureninase) | SID329576362 | 0.619 | inactive
CALY (calcyon neuron specific vesicular protein) | SID329578808 | 0.185 | inactive
CFAP54 (cilia and flagella associated protein 54) | SID329582872 | 2.2 | active
KBTBD4 (kelch repeat and BTB domain containing 4) | SID329579824 | -0.118 | inactive
BEX3 (brain expressed X-linked 3) | SID329578462 | 0.25 | inactive
ZFHX2 (zinc finger homeobox 2) | SID329581861 | 0.363 | inactive
RPL32 (ribosomal protein L32) | SID329575173 | -0.0907 | inactive
VPS26B (VPS26 retromer complex component B) | SID329582172 | 1.12 | active
ACTL7A (actin like 7A) | SID329577404 | -0.582 | inactive
MAFG (MAF bZIP transcription factor G) | SID329574366 | -1.26 | active
WDCP (WD repeat and coiled coil containing) | SID329581198 | 0.899 | inactive
RAPH1 | SID329580743 | -0.88 | inactive
TAB3 (TGF-beta activated kinase 1 (MAP3K7) binding protein 3) | SID329583766 | -0.962 | inactive
